Assay results taken from US20100104550A1.

Target: BiPD416, murine BiP with L416 to D substitution (pBC-BiPD416 in E. coli JM109; pEFIRES-P-BiPD416 in Vero cells) (murine) (UniProt P20029)
Test: cell-based or functional assay

Substance: Subtilase cytotoxin (SubAB) holotoxin (from UniProt Q6EZC3 24-141)
- cytotoxicity endpoint titre on Vero cells transfected with the BiPD416 construct (CD50/µg toxin): < 50
